Experimental data: publication PMC4936896, “Primate TRIM5 proteins form hexagonal nets on HIV-1 capsids” (eLife, 2016)

Target: the molecule itself
Assay: SEC; final gel filtration step, HiLoad 16/600 Superdex 200 in 20 mM CHES, 100 nM ZnCl2, 1 mM TCEP, pH 10.0, 4°C; oligomer judged from retention time

B1: HIV-1-restricting human TRIM5α_(R332P) (natural protein, UniProt Q9C035 1-493, looked up)
chain: MASGILVNVKEEVTCPICLELLTQPLSLDCGHSFCQACLTANHKKSMLDKGESSCPVCRISYQPENIRPNRHVANIVEKLREVKLSPEGQKVDHCARHGEKLLLFCQEDGKVICWLCERSQEHRGHHTFLTEEVAREYQVKLQAALEMLRQKQQEAEELEADIREEKASWKTQIQYDKTNVLADFEQLRDILDWEESNELQNLEKEEEDILKSLTNSETEMVQQTQSLRELISDLEHRLQGSVMELLQGVDGVIKRTENVTLKKPETFPKNQRRVFRAPDLKGMLEVFRELTDVRRYWVDVTVAPNNISCAVISEDKRQVSSPKPQIIYGAPGTRYQTFVNFNYCTGILGSQSITSGKHYWEVDVSKKTAWILGVCAGFQPDAMCNIEKNENYQPKYGYWVIGLEEGVKCSAFQDSSFHTPSVPFIVPLSVIICPDRVGVFLDYEACTVSFFNITNHGFLIYKFSHCSFSQPVFPYLNPRKCGVPMTLCSPSS
notes: also called TRIM5α_(hu,R332P)
With B1 the “stoichiometry N” value was 2.
